For two molecules, koff and Kd results are on record in publication PMC6181439 (2018).

Chains of the proteins cited; added tags and fusions are not shown. Residues count along the entry.
UniProt P04925, 23-230: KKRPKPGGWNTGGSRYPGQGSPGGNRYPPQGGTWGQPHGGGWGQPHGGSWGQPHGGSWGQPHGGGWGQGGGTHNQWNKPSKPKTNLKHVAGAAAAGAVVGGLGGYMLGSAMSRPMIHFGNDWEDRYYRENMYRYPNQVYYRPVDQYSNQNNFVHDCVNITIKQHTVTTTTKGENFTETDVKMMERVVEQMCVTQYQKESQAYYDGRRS

Test [1] concerns the target T1, Recombinant mouse PrP full length (23-230) (mouse, UniProt P04925 23-230). Nature of the test: SPR. (Surface plasmon resonance follows binding to a sensor surface in real time, without labels.)
Test [2] addresses T1, Recombinant mouse PrP full length …. The test is described as follows: SPR. This is another data set of the same source.

B1: Full IgG POM1 monoclonal antibody (antibody, V domains shown)
VH: QVQLQQSGTELVMPGASVKMSCKASGYTFTDYWMHWVKQRPGQGLEWIGSIDPSDSYTSHNEKFKGKATLTVDESSSTAYMQLSSLTSEDSAVYFCSRSGYGYYAMEYWGQGTSVTVSS
VL: DIVLTQSPAILSVSPGERVSFSCRASQNIGTSIHWYQQRTNESPRLIIKYASESISGIPSRFSGSGSGTDFTLSINSVESEDIADYYCQQSNTWPYTFGGGTKLELK
As to B1, the koff in test [1] amounted to 9.1e-05 s⁻¹. Further, in test [2], the equilibrium dissociation constant (Kd) worked out at 0.5 nM.

B2: scPOM1 (scFv, V domains shown)
VH: QVQLQQSGTELVMPGASVKMSCKASGYTFTDYWMHWVKQRPGQGLEWIGSIDPSDSYTSHNEKFKGKATLTVDESSSTAYMQLSSLTSEDSAVYFCSRSGYGYYAMEYWGQGTSVTVSS
VL: DIVLTQSPAILSVSPGERVSFSCRASQNIGTSIHWYQQRTNESPRLIIKYASESISGIPSRFSGSGSGTDFTLSINSVESEDIADYYCQQSNTWPYTFGGGTKLELK
Consider B2, for which the koff in test [1] amounted to 0.00031 s⁻¹. Moreover, the Kd in test [2] came to 4.8 nM.

The term koff denotes a measure of how fast the partners let go of each other. A word on the Kd: it is the free concentration of one partner at which half of the binding sites on the other are occupied at equilibrium, for simple one-to-one binding.
